Measurements as given in paper PMC8113231 (Nature Communications, 2021).

Assays:
[1] = test system: recombinant HA protein (H5 HA)

## CC(C)[C@@H]1NC(=O)[C@H]([C@@H](C)O)NC(=O)[C@H](Cc2ccc(O)cc2)NC(=O)[C@H](Cc2c[nH]cn2)NC(=O)[C@H](CO)N(C)C(=O)[C@H](CO)NC(=O)[C@H](Cc2ccccc2)N(C)C(=O)[C@H](Cc2ccccc2)N(C)C(=O)[C@H](CC(=O)O)NC(=O)CN(C)C(=O)[C@H]([C@@H](C)O)NC(=O)[C@H](Cc2c[nH]c3ccccc23)NC(=O)CSC[C@@H](C(N)=O)NC(=O)[C@H](CCCNC(=N)N)NC(=O)[C@@H]2CCCN2C1=O [iHA-100]
[1]
  Kd: 0.0015 µM
H5N1/Vac-3
  IC50: 0.036 µM
